Results of unrelated studies side by side (data: NIAID ChemDB).

All rows: cytotoxicity tests; cell line: MT-4; measure: CC50

CCn is the concentration with n% toxicity to the cells. Rows are shuffled and stem from different studies.

smiles,value
CCc1c(-c2coc(CC/C(C)=C/c3ccccc3)n2)oc(OC)c(C)c1=O,>6.6 µM
N#Cc1ccc(Nc2nccc(NC3CCCCC3)n2)cc1,7.33 µM
COc1cc([C@H]2c3c(cc(OC)c(OC)c3OC)C[C@H]3COC(=O)[C@@H]32)cc(C)c1OC,183 µM
Cc1nc(CCCCCCC(=O)c2ccccc2)n2nc(NCCCCCCCCCCCCN)ccc12,>10 µM
Fc1cccc(F)c1Cn1c(=S)[nH]c2ccccc21,>25 µg/mL
C=CCNc1nc(Nc2ccc(C#N)cc2F)nc(Oc2ccc3ccccc3c2Cl)n1,>279 µM
CCOCn1c(Cc2cccc3ccccc23)c(CC)c(=O)[nH]c1=O,46 µM
CCc1nc(CC(=O)NN=C(C)C)nn1CC,112 µg/mL
COc1cc([C@H]2c3c(cc(OC)c(OC)c3OC)C[C@H]3CSC[C@@H]32)cc(OC)c1OC,58 µM
CC(C)Nc1nc(Nc2ccc(C#N)cc2F)nc(Oc2ccc3ccccc3c2Br)n1,>254 µM
Cc1cn([C@@H]2O[C@H](CO)C[C@@H]2F)c(=O)nc1N,>500 µM
Cc1cn([C@@H]2O[C@H](C3CO[Si](C(C)C)(C(C)C)O[Si](C(C)C)(C(C)C)O3)C3(OS(=O)(=O)C=C3N)[C@H]2O[Si](C)(C)C(C)(C)C)c(=O)[nH]c1=O,4.5 µM
COc1ccc2[nH]c(=S)n(Cc3c(F)cccc3F)c2c1,1.71 µg/mL
Nc1ccn([C@@H]2CC[C@H](CO)O2)c(=O)n1,20 µM
CCn1nc(CC(=O)NN=C(C)C)nc1C,107 µg/mL
CNc1nc(Nc2ccc(C#N)cc2F)nc(Oc2ccc3ccccc3c2Cl)n1,149 µM
COc1ccccc1/C=C(\C#N)n1nnc2ccccc21,8.3 µM
CC(CC(F)(OC(F)(F)C(F)(OC(F)(F)C(F)(F)C(F)(F)F)C(F)(F)F)C(F)(F)F)(C(=O)OCCOP(=O)(O)O)C(F)(OC(F)(F)C(F)(OC(F)(F)C(F)(F)C(F)(F)F)C(F)(F)F)C(F)(F)F,>100 µg/mL
[C-]#[N+][C@H]1C[C@H](n2ccc(=O)[nH]c2=O)O[C@@H]1CO,500 µM
Cc1cn([C@H]2C=C(F)[C@@H](CO)O2)c(=O)[nH]c1=O,232 µM
Nc1ccn([C@@H]2C[C@H](F)[C@H](CO)O2)c(=O)n1,>100 µM
COc1ccc2[nH]c(=S)n(Cc3c(F)cccc3F)c2n1,17.81 µg/mL
N#C/C(=C\c1ccc[nH]1)n1nnc2ccccc21,>100 µM
Nc1nc(N)c2ncn([C@@H]3O[C@H](CO)C[C@@H]3F)c2n1,>100 µM
CC(CC(F)(F)C(F)(F)C(F)(F)F)(C(=O)OCCOP(=O)(O)O)C(F)(F)C(F)(F)C(F)(F)F,>100 µg/mL
Cc1nc(CC(=O)NN)nn1C,98.4 µg/mL
CCOCn1c(Cc2ccccc2)c(C(C)C)c(=O)[nH]c1=O,141 µM
N#Cc1ccc(Nc2nccc(SC3CCCCC3)n2)cc1,>403 µM
C=C1C(n2ccc(N)nc2=O)C=CC1(CO)CO,95 µM
CCNc1nc(Nc2ccc(C#N)cc2F)nc(Oc2ccc(C)cc2)n1,243 µM
Cc1cc(SC2CCCCC2)nc(Nc2ccc(C#N)cc2)n1,>192 µM
C=CNc1nc(Nc2ccc(C#N)cc2F)nc(Oc2ccc3ccccc3c2)n1,229 µM
Cc1cnc(Nc2ccc(C#N)cc2)nc1OC1CCCCC1,31.23 µM
COc1cc([C@H]2c3c(cc4c(c3OC)OCO4)C[C@H]3CSC[C@@H]32)cc(C)c1OC,163 µM
Cc1nc(CCCCCCC(=O)c2ccccc2)n2nc(Cl)ccc12,>10 µM
COc1ccc(-n2c(Cc3nc4n(n3)CCCC4)n[nH]c2=S)cc1,105.2 µg/mL
Cc1ccc(Oc2nc(N)nc(Nc3ccc(C#N)cc3F)n2)cc1,163 µM
Cc1nc(CCCCCCC(=O)c2ccccc2)n2nc(NCCCCCCCCCCN)ccc12,>10 µM
Cc1ccc(Oc2nc(Nc3ccc(C#N)cc3F)nc(NC(C)C)n2)cc1,278 µM
C[C@H](COc1cc(N)nc(N)n1)OCP(=O)(O)O,≥100 µg/mL
N#Cc1ccc(Nc2nc(N)nc(Oc3ccc4ccccc4c3)n2)c(F)c1,336 µM
CC1CNC(=O)c2ccccc2SSc2ccccc2C(=O)N1,15.9 µg/mL
Cc1nc(CCCCCCC(=O)c2ccccc2)n2nc(NCCCCCCCCCCCCNCc3cn([C@H]4C=C[C@@H](CO)O4)c(=O)[nH]c3=O)ccc12,33 µM
Cc1cn([C@@H]2O[C@H](C(COC(=O)c3ccccc3)OC(=O)c3ccccc3)C3(OS(=O)(=O)C=C3N)[C@H]2O[Si](C)(C)C(C)(C)C)c(=O)[nH]c1=O,8.3 µM
C=CNc1nc(Nc2ccc(C#N)cc2F)nc(Oc2ccc3ccccc3c2Br)n1,>255.1 µM
N#C/C(=C/C1CCCCC1)n1nnc2ccccc21,6 µM
CC(CC(F)(F)C(F)(F)C(F)(F)F)(C(=O)OCCOP(=O)([O-])O)C(F)(F)C(F)(F)C(F)(F)F.[NH3+]CCO,>100 µg/mL
Cc1cn([C@H]2C[C@H](N=[N+]=[N-])[C@@H](CO)O2)c(=O)[nH]c1=O,1.17 µM
O=C(/C=C(\O)c1ncn[nH]1)c1ccc(Cc2ccc(F)cc2)o1,12 µM
CC(C)CCC[C@@H](C)[C@H]1CC[C@H]2[C@@H]3CC[C@H]4C[C@@H](CCC=C(c5cc(Cl)c(OCc6ccc(C(=O)O)cc6)c(C(=O)O)c5)c5cc(Cl)c(OCc6ccc(C(=O)O)cc6)c(C(=O)O)c5)CC[C@]4(C)[C@H]3CC[C@]12C,95 µM
CCn1nc(CC(=O)N/N=C/c2ccco2)nc1C,104 µg/mL
N#C/C(=C\c1ccc(F)cc1)n1nnc2ccccc21,3 µM
Nc1nc2c(ncn2[C@H]2C[C@H](F)[C@@H](CO)O2)c(=O)[nH]1,231 µM

For reference, 7 entries again:

smiles,value
C=C1C(n2ccc(N)nc2=O)C=CC1(CO)CO,95 µM
Cc1cc(SC2CCCCC2)nc(Nc2ccc(C#N)cc2)n1,>192 µM
COc1cc([C@H]2c3c(cc4c(c3OC)OCO4)C[C@H]3CSC[C@@H]32)cc(C)c1OC,163 µM
CCn1nc(CC(=O)N/N=C/c2ccco2)nc1C,104 µg/mL
CCn1nc(CC(=O)NN=C(C)C)nc1C,107 µg/mL
Cc1nc(CCCCCCC(=O)c2ccccc2)n2nc(NCCCCCCCCCCCCNCc3cn([C@H]4C=C[C@@H](CO)O4)c(=O)[nH]c3=O)ccc12,33 µM
[C-]#[N+][C@H]1C[C@H](n2ccc(=O)[nH]c2=O)O[C@@H]1CO,500 µM